Results of unrelated studies side by side (data: NIAID ChemDB).

Common to all: toxicity to cultured cells; read-out: CC50

CCn: concentration that lowers growth or viability of the cells by n%. Lines come from different laboratories, so protocols vary.

SMILES	cell line	value
CC(=O)N1C(=O)C(=Nc2ccc(S(=O)(=O)Nc3nc(C)cc(C)n3)cc2)c2ccccc21	HFF	>300 µM
CC(=O)c1c(-c2ccc(Cl)cc2)oc2ccccc2c1=O	HeLa	4.57 µM
Nc1ncnc2c1ncn2C1CC(COP(=O)(O)O)[C@@H](O)[C@H]1O	HeLa	20 µg/mL
Cc1cc(C)nc(NS(=O)(=O)c2ccc(N=C3C(=O)Nc4ccccc43)cc2)n1	HFF	>300 µM
S=c1cc(-c2ccc(Cl)cc2)s[nH]1	HEP-2	87.5 µM
CC(C)(C)C(=O)OCOP(=O)(COCCn1cnc2c(N)ncnc21)OCOC(=O)C(C)(C)C	LLC-MK2	>100 µg/mL
COC(OC)c1cn([C@H]2C[C@H](O)[C@@H](CO)O2)c(=O)[nH]c1=O	HFF	>300 µM
O=C(/C=C/c1ccc(O)c(O)c1)Oc1c(-c2ccc(Cl)cc2)oc2ccccc2c1=O	HeLa	0.91 µM
Oc1cccc(O)c1-c1c2nc(c(-c3c(O)cccc3O)c3ccc([nH]3)c(-c3c(O)cccc3O)c3nc(c(-c4c(O)cccc4O)c4ccc1[nH]4)C=C3)C=C2	CV-1	50 µg/mL
CCn1c(-c2nccs2)cc(=O)c2cc(C(C)C)ccc21	HeLa S3	>50 µg/mL
Cc1cc(C)nc(NS(=O)(=O)c2ccc(N=C3C(=O)Nc4ccc(Cl)cc43)cc2)n1	HFF	>300 µM
NC(=O)c1csc([C@@H]2O[C@H](CO)[C@@H](O)[C@H]2O)n1	LLC-MK2	>100 µg/mL
Nc1nc(=O)n([C@@H]2C=C(CO)[C@@H](O)[C@H]2O)cc1F	MK2	70 µg/mL
CS/C(N)=N\N=C(/C)c1cccc(Cl)c1	Chorioallantoic membrane	707.5 µg/mL
Nc1ncnc2c1nc(Br)n2[C@@H]1O[C@H](CO)[C@@H](O)[C@H]1O	VERO	415 µM
CCn1c(-c2ccccc2)cc(=O)c2c(C)c(OCC(C)C)ccc21	HeLa S3	>4 µg/mL
Nc1ccn(C[C@H]2COP(=O)(O)CO2)c(=O)n1	LLC-MK2	>100 µg/mL
CCCCCCCCCCCCCCCCOCCCOP(=O)(O)COCCn1cnc2c(=O)[nH]c(N)nc21	HFF	>102 µM
CCn1c2c(c(=O)c3cc(C(C)C)ccc31)Cc1ccccc1-2	HeLa S3	>4 µg/mL
COc1cc(/C=C/C(=O)Oc2c(-c3ccc(Cl)cc3)oc3ccccc3c2=O)ccc1O	HeLa	6.25 µM
O=c1[nH]cnc2c1ncn2[C@@H]1C=C(CO)[C@@H](O)[C@H]1O	MK2	>100 µg/mL
Cc1cn([C@@H]2O[C@H](CO)[C@@H](O)[C@@H]2F)c(=O)[nH]c1=O	C1271	17 µM
CCCCCCCCCCCCOc1ccc(/C=C/C(C)=N/N=C(/N)SC)cc1	Chorioallantoic membrane	>1000 µg/mL
CCn1c(-c2ccccn2)cc(=O)c2cc(C(C)C)ccc21	HeLa S3	>100 µg/mL
Nc1ncnc2c1ncn2[C@@H]1C[C@H](COP(=O)(O)O)[C@@H](O)[C@H]1O	PRK	>400 µg/mL
CS\C(N)=N/N=C(C)/C=C/c1ccc(Cl)cc1	Chorioallantoic membrane	710 µg/mL
Cc1nc2c(N)ncnc2n1[C@@H]1O[C@H](CO)[C@@H](O)[C@H]1O	C1271	5.2 µM
Nc1ncnc2c1ncn2[C@@H]1CC[C@@H](O)[C@H]1O	L929	73 µM
Nc1ncnc2c1ncn2C[C@@H](CO)OCP(=O)(O)O	LLC-MK2	>100 µg/mL
S=c1cc(-c2ccccc2)s[nH]1	HEP-2	90.75 µM
Nc1nccc2c1ncn2[C@@H]1C=C(CO)[C@@H](O)[C@H]1O	LLC-MK2	>100 µg/mL
CC(=O)c1c(-c2ccc(Cl)c(Cl)c2)oc2ccccc2c1=O	HeLa	3.57 µM
C#Cc1nc2c(ncn2[C@@H]2O[C@H](CO)[C@@H](O)[C@H]2O)c(=O)[nH]1	HFF	66.5 µg/mL
CO[C@H]1[C@@H](O)[C@H](n2cnc3c(N)ncnc32)O[C@@H]1CO	C1271	275 µM
COc1ccc2cc1Oc1ccc(cc1)CC1c3cc(c(OC)cc3CCN1C)Oc1c(OC)c(OC)c(OC)c3c1C(C2)N(C)CC3	CEF	72 µM

Again, the opening 2 rows:

{"SMILES": "CC(=O)N1C(=O)C(=Nc2ccc(S(=O)(=O)Nc3nc(C)cc(C)n3)cc2)c2ccccc21", "cell line": "HFF", "value": ">300 µM"}
{"SMILES": "CC(=O)c1c(-c2ccc(Cl)cc2)oc2ccccc2c1=O", "cell line": "HeLa", "value": "4.57 µM"}